Results published in US11168092B2 (priority 2019, dated 2021).

Tests used:
[1] = tested on: ovarian cancer cells (SK-OV-3); assay: SRB bioassay, cytotoxicity on ovarian cancer cells; assay type: cell-based; settings: read-out: IC50 value
[2] = tested on: colorectal cancer cells (HCT15); assay: SRB bioassay, cytotoxicity on colorectal cancer cells; assay type: cell-based; parameters: Anticancer activity (value at given concentration): unit not given here; settings: for Anticancer activity (value at given concentration): 72 hours
[3] = tested on: skin cancer cells (SK-MEL-2); assay: SRB bioassay, cytotoxicity on skin cancer cells; assay type: cell-based; parameters: unit not given here; settings: 72 hours
lung cancer cells (A549) = assay: SRB bioassay, cytotoxicity on lung cancer cells; assay type: cell-based; parameters: unit not given here; settings: 72 hours
[4] = tested on: lung cancer cells (A549), ovarian cancer cells (SK-OV-3), skin cancer cells (SK-MEL-2), and colorectal cancer cells (HCT15); settings: read-out: IC50 value, over lung
[5] = HCT15, concentration 0.0001 (mM)
[6] = HCT15, concentration 0.001 (mM)
[7] = SK-MEL-2, concentration 0.0001 (mM)
[8] = SK-MEL-2, concentration 0.001 (mM)
[9] = SK-MEL-2, concentration 0.01 (mM)
[10] = SK-MEL-2, concentration 0.1 (mM)
[11] = SK-MEL-2, concentration 1.0 (mM)
[12] = SK-MEL-2, concentration 10.0 (mM)
[13] = A549, concentration 0.0001 (mM)

Row | Compound | Anticancer activity (value at given concentration) [2, 5] | Anticancer activity (value at given concentration) [2, 6] | Anticancer activity (value at given concentration) ([2]; HCT15, concentration 0.01 (mM)) | Anticancer activity (value at given concentration) ([2]; HCT15, concentration 0.1 (mM)) | Anticancer activity (value at given concentration) ([2]; HCT15, concentration 1.0 (mM)) | Anticancer activity (value at given concentration) ([2]; HCT15, concentration 10.0 (mM)) | Anticancer activity (value at given concentration) [3, 7] | Anticancer activity (value at given concentration) [3, 8] | Anticancer activity (value at given concentration) [3, 9] | Anticancer activity (value at given concentration) [3, 10] | Anticancer activity (value at given concentration) [3, 11] | Anticancer activity (value at given concentration) [3, 12] | Anticancer activity (value at given concentration) (lung cancer cells (A549); [13]) | Anticancer activity (value at given concentration) (lung cancer cells (A549); A549, concentration 0.001 (mM)) | Anticancer activity (value at given concentration) (lung cancer cells (A549); A549, concentration 0.01 (mM)) | Anticancer activity (value at given concentration) (lung cancer cells (A549); A549, concentration 0.1 (mM)) | Anticancer activity (value at given concentration) (lung cancer cells (A549); A549, concentration 1.0 (mM)) | Anticancer activity (value at given concentration) (lung cancer cells (A549); A549, concentration 10.0 (mM)) | also measured
1 | CC1=C[C@H]2O[C@@H]3C[C@@H](OC(=O)/C=C\C=C\C4([C@H](C)O)OCC/C(=C\C(=O)O)[C@@H]4O)[C@](C)([C@@]2(CO)CC1)[C@]31CO1 (stereo partly drawn) | 101.22 | 106.07 | 105.35 | 107.55 | 106.20 | 11.54 | 99.03 | 104.42 | 97.76 | 102.99 | 101.04 | 87.55 | 95.36 | 99.30 | 94.81 | 91.26 | 100.21 | 68.29 | IC50 [1]: 4.52 µM; IC50 ([2]; read-out: IC50 value, colorectal cancer): 3.74 µM
2 | (2Z,4E)-(2R,2′S,4R,5S,5aR,9aR)-5a-((((E)-5-hydroxy-3-methylpent-2-enoyl)oxy)methyl)-5,8-dimethyl-2,3,4,5,5a,6,7,9a-octahydrospiro[2,5-methanobenzo[b]oxepine-10,2′-oxiran]-4-yl-7-hydroxy-6-(2-(5-oxo-2,5-dihydrofuran-3-yl)ethoxy)octa-2,4-dienoate |  |  |  |  |  |  |  |  |  |  |  |  | 91.20 | 86.40 | 49.33 | −11.78 | −32.54 | −64.23 | IC50 [4]: < 70 nM
3 | CC1=C[C@H]2O[C@@H]3C[C@@H](OC(=O)/C=C\C=C\C(OCCC4=CC(=O)OC4)C(C)O)[C@](C)([C@@]2(CO)CC1)[C@]31CO1 (stereo partly drawn) | 103.20 | 103.56 | 105.34 | 105.40 | 102.31 | 83.30 | 100.12 | 106.18 | 107.91 | 101.40 | 105.53 | 106.64 | 96.62 | 101.48 | 100.72 | 108.40 | 101.96 | 103.02 | 
4 | CC1=C[C@H]2O[C@@H]3C[C@H]4OC(=O)/C=C\C=C\[C@]5([C@H](C)O)OCC/C(=C\C(=O)OC[C@@]2(CC1)[C@]4(C)[C@]31CO1)[C@H]5O |  |  |  |  |  |  |  |  |  |  |  |  | 98.46 | 98.27 | 97.65 | 99.81 | 99.22 | 10.35 | 
5 | COC(=O)/C=C/C=C/[C@@H](OCC/C(C)=C/C(=O)OC[C@]12CCC(C)=C[C@H]1O[C@@H]1C[C@@H](O)[C@@]2(C)[C@]12CO2)[C@@H](C)O | 102.34 | 105.63 | 107.01 | 105.29 | 86.63 | 86.27 | 94.45 | 93.83 | 99.46 | 103.86 | 102.59 | 97.30 | 93.23 | 97.98 | 102.62 | 102.22 | 101.45 | 98.84 | 
